Data as given in PubChem BioAssay AID1822 (The Scripps Research Institute Molecular Screening Center, 2009).
The entries are a selection whose mix differs from that of the whole data set. The source made the active and inactive calls.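 The calls were made as follows: active = inhibition above the campaign mean inhibition over all tested compounds plus 3 SD (cut at about 28% in these data); inactive = the rest.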

system: M18 aspartyl aminopeptidase (Plasmodium falciparum 3D7); assay: inhibition of P. falciparum M18 aminopeptidase – biochemical, QFRET, recombinant enzyme, primary screen (AID 1822); settings: recombinant PfM18AAP, H-Glu-NHMec fluorogenic cleavage; at 7.35 µM; hits give high values;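 also: 0% = plate median of test compound wells and 100% = 2 mM ZnCl2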

**Q.** Which inhibition does the source give for `CP(=O)(OC12CC3CC(CC(C3)C1)C2)OC12CC3CC(CC(C3)C1)C2` here?
**A.** inactive: -1.26%

**Q.** `CCOC(=O)c1ccc(NP(C)(=O)Oc2ccc(Cl)cc2)cc1` (stereo unspecified) was tested. Which inhibition did it give?
**A.** inactive: -2.57%

**Q.** For `CP(=O)(Oc1ccccc1)N1CCOC1=O` (stereo unspecified), which inhibition is on record?
**A.** inactive: -8.72%

**Q.** Which inhibition does the source give for `CCc1ccc(OP(C)(=O)Nc2cccnc2)cc1` (stereo unspecified) here?
**A.** inactive: -8.1%

**Q.** For `COc1ccccc1OP(C)(=O)Nc1c(C)n(C)n(-c2ccccc2)c1=O` (stereo unspecified), which inhibition is on record?
**A.** inactive: -17.7%

**Q.** `O=C(OCCCN1CCCC1)C(O)(c1ccccc1)C1CCCCC1` (stereo unspecified) was tested. Which inhibition did it give?
**A.** inactive: -6.87%

**Q.** `CCN(CC)CC(O)COC(=O)C(O)(c1ccccc1)C1CCCCC1` (stereo unspecified) was tested. Which inhibition did it give?
**A.** inactive: 3.1%

**Q.** Which inhibition does the source give for `COc1ccc(OP(C)(=O)Nc2ccc(Br)cc2)cc1` (stereo unspecified) here?
**A.** inactive: -12.4%

**Q.** How did the inhibition turn out when `CN(C)C(=O)c1c([N+](=O)[O-])cc([N+](=O)[O-])cc1[N+](=O)[O-]` was run?
**A.** active: 29%

**Q.** For `CP(=O)(Nc1ccc(Cl)cc1)Oc1ccc(F)cc1` (stereo unspecified), which inhibition is on record?
**A.** inactive: -0.86%

**Q.** Which inhibition does the source give for `CC(C)(C)c1ccc(OP(C)(=O)O)cc1` here?
**A.** inactive: 5.38%

**Q.** `COc1ccccc1OP(C)(=O)Nc1ccccc1Br` (stereo unspecified) was tested. Which inhibition did it give?
**A.** inactive: -3.58%

**Q.** With `CN(C)CCOC(=O)C(O)(c1ccccc1)C1CCCC1` (stereo unspecified) as the compound, how does the inhibition read?
**A.** inactive: -8.85%

**Q.** For `COc1ccc(OP(C)(=O)Nc2ccccn2)cc1` (stereo unspecified), which inhibition is on record?
**A.** inactive: 1.22%

**Q.** For `COc1ccccc1OP(C)(=O)Nc1ccc(Br)cc1` (stereo unspecified), which inhibition is on record?
**A.** inactive: -12.8%

**Q.** How did the inhibition turn out when `CCc1ccc(OP(C)(=O)O)cc1` was run?
**A.** inactive: 1.24%

**Q.** How did the inhibition turn out when `CP(=O)(Nc1ccccn1)Oc1ccccc1` (stereo unspecified) was run?
**A.** inactive: 1.43%

**Q.** How did the inhibition turn out when `COc1ccccc1OP(C)(=O)Nc1ccc(C)cc1C` (stereo unspecified) was run?
**A.** inactive: -10.7%

**Q.** How did the inhibition turn out when `O=[N+]([O-])c1cc([N+](=O)[O-])c(Nc2ccccn2)c([N+](=O)[O-])c1` was run?
**A.** inactive: -1.13%

**Q.** How did the inhibition turn out when `Cc1c(NP(C)(=O)Oc2ccc(C(C)C)cc2)c(=O)n(-c2ccccc2)n1C` (stereo unspecified) was run?
**A.** inactive: 4.01%

**Q.** How did the inhibition turn out when `COc1ccc(OP(C)(=O)Nc2ccccc2Br)cc1` (stereo unspecified) was run?
**A.** inactive: -3%

**Q.** Which inhibition does the source give for `COc1ccccc1OP(C)(=O)Nc1ccc(C)c(C)c1` (stereo unspecified) here?
**A.** inactive: -2.37%

**Q.** With `Cc1cc(C)cc(OP(C)(=O)Nc2cccc(C(F)(F)F)c2)c1` (stereo unspecified) as the compound, how does the inhibition read?
**A.** inactive: 1.23%

**Q.** Which inhibition does the source give for `CP(=O)(OCCOc1ccccc1)OCCOc1ccccc1` here?
**A.** inactive: -2.5%

**Q.** For `Cc1nc2ccc3ccccc3c2o1.O=[N+]([O-])c1cc([N+](=O)[O-])c(O)c([N+](=O)[O-])c1`, which inhibition is on record?
**A.** active: 32.6%

**Q.** For `COc1ccc(OP(C)(=O)Nc2ccc(SC(F)(F)F)cc2)cc1` (stereo unspecified), which inhibition is on record?
**A.** inactive: 2.04%

**Q.** `CCOC(=O)c1ccc(NP(C)(=O)Oc2ccc(F)cc2)cc1` (stereo unspecified) was tested. Which inhibition did it give?
**A.** inactive: -11.2%

**Q.** Which inhibition does the source give for `O=[N+]([O-])c1cc([N+](=O)[O-])c(OC2CCCCC2O)c([N+](=O)[O-])c1` (stereo unspecified) here?
**A.** inactive: 5.74%

**Q.** With `CCCCCOc1ccc(NP(C)(=O)Oc2ccc(Cl)cc2Cl)cc1` (stereo unspecified) as the compound, how does the inhibition read?
**A.** inactive: -10%

**Q.** How did the inhibition turn out when `CP(=O)(Nc1ccccc1)Oc1ccc(F)cc1` (stereo unspecified) was run?
**A.** inactive: -0.98%

**Q.** How did the inhibition turn out when `CCN(CC)CCCOC(=O)C(O)(c1ccccc1)C1CCCCC1` (stereo unspecified) was run?
**A.** inactive: -5.09%

**Q.** How did the inhibition turn out when `CC(C)c1ccc(OP(C)(=O)Nc2ccc(SC(F)(F)F)cc2)cc1` (stereo unspecified) was run?
**A.** inactive: 1.48%

**Q.** `CP(=O)(Nc1ccccc1F)Oc1ccccc1` (stereo unspecified) was tested. Which inhibition did it give?
**A.** inactive: 11.1%

**Q.** With `O=C(OCCN1CCN(CCOCc2ccccc2)CC1)C(O)(c1ccccc1)c1ccccc1` as the compound, how does the inhibition read?
**A.** inactive: 3.65%

**Q.** How did the inhibition turn out when `O=C(OC1CN2CCC1CC2)c1ccc([N+](=O)[O-])cc1` (stereo unspecified) was run?
**A.** inactive: -1.21%

**Q.** `CCOP(C)(=S)SCC(=O)NC(C)(CC)C(=O)O` (stereo unspecified) was tested. Which inhibition did it give?
**A.** inactive: 8.9%

**Q.** `CP(=O)(Nc1ccc(SC(F)(F)F)cc1)Oc1ccc(F)cc1` (stereo unspecified) was tested. Which inhibition did it give?
**A.** inactive: -11.4%

**Q.** `Cc1ccccc1NP(C)(=O)Nc1ccccc1C` was tested. Which inhibition did it give?
**A.** inactive: 0.75%

**Q.** How did the inhibition turn out when `CP(=O)(Nc1ccc2c(c1)OCCO2)Oc1ccccc1` (stereo unspecified) was run?
**A.** inactive: -0.27%

**Q.** `COc1ccc(NP(C)(=O)Oc2ccccc2OC)cc1` (stereo unspecified) was tested. Which inhibition did it give?
**A.** inactive: -3.74%

**Q.** For `CN(C)CCOC(=O)C(O)(c1ccccc1)C1CCCCC1` (stereo unspecified), which inhibition is on record?
**A.** inactive: -8.96%

**Q.** `COc1ccc(OP(C)(=O)Nc2cccc(Br)c2)cc1` (stereo unspecified) was tested. Which inhibition did it give?
**A.** inactive: -3.16%

**Q.** `Cc1cc(-c2cccc3ccccc23)c(C)cn1.O=[N+]([O-])c1cc([N+](=O)[O-])c(O)c([N+](=O)[O-])c1` was tested. Which inhibition did it give?
**A.** inactive: 2.38%

**Q.** With `O=[N+]([O-])c1cc([N+](=O)[O-])c(NCC2CCS(=O)(=O)C2)c([N+](=O)[O-])c1` (stereo unspecified) as the compound, how does the inhibition read?
**A.** inactive: 8.72%

**Q.** How did the inhibition turn out when `O=[N+]([O-])c1ccc(OP2(=O)COCCO2)cc1` (stereo unspecified) was run?
**A.** inactive: 0.21%

**Q.** How did the inhibition turn out when `O=[N+]([O-])c1cc([N+](=O)[O-])c(Nc2nnnn2CCO)c([N+](=O)[O-])c1` was run?
**A.** inactive: 1.75%

**Q.** With `CCOC(=O)C(CC)C1=NC(C)(C)Cc2ccccc21.O=[N+]([O-])c1cc([N+](=O)[O-])c(O)c([N+](=O)[O-])c1` (stereo unspecified) as the compound, how does the inhibition read?
**A.** inactive: 2.19%

**Q.** `CP(=O)(Nc1ccc(SC(F)(F)F)cc1)Oc1ccccc1` (stereo unspecified) was tested. Which inhibition did it give?
**A.** inactive: -1.57%

**Q.** With `CCCOc1ccc(NP(C)(=O)Oc2ccc(Cl)cc2)cc1` (stereo unspecified) as the compound, how does the inhibition read?
**A.** inactive: 0.09%

**Q.** Which inhibition does the source give for `CN1CCCCC1COC(=O)C1(O)c2ccccc2CCc2ccccc21` (stereo unspecified) here?
**A.** inactive: -4.24%

**Q.** `COc1ccccc1OP(C)(=O)Nc1c(C)cccc1C` (stereo unspecified) was tested. Which inhibition did it give?
**A.** inactive: 0.5%

**Q.** With `O=[N+]([O-])c1cc([N+](=O)[O-])c(-n2nnc3ccccc32)c([N+](=O)[O-])c1` as the compound, how does the inhibition read?
**A.** inactive: 9.53%

**Q.** `Cc1nc2ccc3ccccc3c2s1.O=[N+]([O-])c1cc([N+](=O)[O-])c(O)c([N+](=O)[O-])c1` was tested. Which inhibition did it give?
**A.** inactive: 11.2%

**Q.** `Cc1cc(C)cc(OP(C)(=O)Nc2ccc(C)cc2C)c1` (stereo unspecified) was tested. Which inhibition did it give?
**A.** inactive: -3.12%

**Q.** Which inhibition does the source give for `CCOC(=O)c1ccc(NP(C)(=O)Oc2cc(C)cc(C)c2)cc1` (stereo unspecified) here?
**A.** inactive: -12.3%

**Q.** `COc1ccccc1OP(C)(=O)Nc1cccc(Br)c1` (stereo unspecified) was tested. Which inhibition did it give?
**A.** inactive: 8.46%

**Q.** With `CP(=O)(Nc1cccc(Br)c1)Oc1ccccc1` (stereo unspecified) as the compound, how does the inhibition read?
**A.** inactive: 0.12%

**Q.** For `Cc1cc(C)cc(OP(C)(=O)Nc2ccccn2)c1` (stereo unspecified), which inhibition is on record?
**A.** inactive: -0.84%

**Q.** How did the inhibition turn out when `Cc1ccc(C)c(NP(C)(=O)Oc2ccccc2)c1` (stereo unspecified) was run?
**A.** inactive: 2.43%

**Q.** Which inhibition does the source give for `O=C(O)c1cccc(Nc2c([N+](=O)[O-])cc([N+](=O)[O-])cc2[N+](=O)[O-])c1` here?
**A.** inactive: -0.55%

**Q.** How did the inhibition turn out when `CC1=NCCc2c1[nH]c1ccccc21.O=[N+]([O-])c1cc([N+](=O)[O-])c(O)c([N+](=O)[O-])c1` was run?
**A.** inactive: 9.31%
